Pooled drug test results. Numbers come from NIAID ChemDB, via PubChem.

Common to all: host cell toxicity; cells: MT-2; method: MTT; measure: CC50

Rows are shuffled and stem from different studies. CCn is the concentration with n% toxicity to the cells.

| compound | result |
|---|---|
| CN(c1nnc(Nc2ccc(C#N)cc2)o1)c1c(Cl)cccc1Cl | 30 µM |
| COc1cc2c(c(OC)c1)[C@@H](N1CCCC1=O)C[C@@H](c1cccc(N)c1)N2 | >50 µM |
| CN(c1ccc(C#N)cc1)c1nnc(Cc2c(Cl)cccc2Cl)o1 | 67 µM |
| N#C/C=C/c1cc(Cl)cc(Oc2ccc(OCCN3CCOCC3)cc2OCCn2ccc(=O)[nH]c2=O)c1 | >100 µM |
| COc1ccc2c(c1)[C@@H](N1CCCC1=O)C[C@@H](c1cccc([N+](=O)[O-])c1)N2 | >50 µM |
| Cc1cnc(N2C(=O)CSC2c2c(Cl)cccc2Cl)c(C)c1 | >65 µM |
| Clc1cc(Cl)cc(Nc2ncc(Cc3c(Cl)cccc3Cl)o2)c1 | 19 µM |
| Nc1cccc([C@@H]2C[C@H](N3CCCC3=O)c3ccccc3N2)c1 | >50 µM |
| O=C1CSC(c2c(Cl)cccc2Cl)N1CCc1ccccc1 | >228 µM |
| CCc1ccc(Nc2ncc(Cc3c(Cl)cccc3Cl)o2)cc1 | >100 µM |
| Cc1cccc(N2C(=O)CSC2c2ccccn2)n1 | >16 µM |
| C=C1CC[C@@H](OC(C)=O)[C@@]2(C)CC[C@]3(O)O[C@@]12C[C@@]3(C)CCC(=O)C(C)C | 1780 µM |
| O=C1CCCN1[C@H]1C[C@@H](c2cccc([N+](=O)[O-])c2)Nc2ccccc21 | >50 µM |
| COc1ccc(OC)c(C2SCC(=O)N2CCc2ccccc2)c1 | >303 µM |

Repeating the final 2 entries:

compound | result
O=C1CCCN1[C@H]1C[C@@H](c2cccc([N+](=O)[O-])c2)Nc2ccccc21 | >50 µM
COc1ccc(OC)c(C2SCC(=O)N2CCc2ccccc2)c1 | >303 µM